Reference: US20230380451A1, “MEANS AND METHODS TO DETOXIFY MYCOTOXINS” (priority 2020, published 2023)

Tested on: SEQ ID NO. 5 (TAM-Ac)
Assay: Transamination (transformation) assay with TAM-Ac, QTOF-MS analysis
Type: biochemical
Settings: substrate with TAM-Ac, 30° C.

(7α)-7,15-dihydroxy-12,13-epoxytrichothec-9-en-3,8-one
QTOF analysis result: 3-keto-DON (T0 h): 2.69E+05 | QTOF analysis result: 8-amino-DON (T0 h): 6.47E+02 | QTOF analysis result: DON (T0 h): 1.07E+03 | QTOF analysis result: 3-keto-DON (T3 h): 2.62E+05 | QTOF analysis result: 8-amino-3-keto-DON RT 0.6 min (T3 h): 8.32E+03 | QTOF analysis result: 8-amino-3-keto-DON RT 1.2 min (T3 h): 1.03E+04 | QTOF analysis result: 8-amino-DON (T3 h): 5.56E+02 | QTOF analysis result: DON (T3 h): 1.17E+03 | QTOF analysis result: 3-keto-DON (T18 h): 3.02E+05 | QTOF analysis result: 8-amino-3-keto-DON RT 0.6 min (T18 h): 1.04E+05 | QTOF analysis result: 8-amino-3-keto-DON RT 1.2 min (T18 h): 1.32E+05 | QTOF analysis result: 8-amino-DON (T18 h): 2.70E+02 | QTOF analysis result: DON (T18 h): 1.84E+03
